Anti-infective test results gathered from many reports (values: NIAID ChemDB through PubChem).

Common to all: tests on isolated targets; agent: HIV-1; protein: Protease

ICn: concentration for n% inhibition.

compound	strain or isolate	method	endpoint	value
COc1c(O)cc([C@H]2Oc3cc(O)cc(O)c3C[C@@H]2O)cc1O[C@@H]1O[C@H](CO)[C@@H](O)[C@H](O)[C@H]1O	IIIB	HPLC	IC50	<100 µg/mL
COC(=O)[C@]12CC[C@@H](C)[C@H](C)[C@H]1C1=CC[C@@H]3[C@@]4(C)CC[C@H](O)C(C)(C)[C@@H]4CC[C@@]3(C)[C@]1(C)CC2			IC50	14 µM
COC(=O)[C@@H](NC(=O)[C@H](CC(C)C)NC(=O)[C@@H](NC(=O)CCCOc1cccc(OCCCC(=O)N[C@H](C(=O)N[C@@H](CC(C)C)C(=O)N[C@H](C(=O)OC)C(C)C)[C@@H](C)O)n1)[C@@H](C)O)C(C)C		fluorescence	IC50	>7 µM
COC(=O)CC[C@H](NC(=O)CNCC(O)[C@H](CC1CCCCC1)NC(=O)OC(C)(C)C)C(=O)NCCCc1ccccc1		HPLC	IC50	0.6 µM
O=C(N[C@H]1c2ccccc2C[C@H]1O)[C@H](Cc1ccccc1)C[C@H](O)CN1C(=O)[C@@H](Cc2ccccc2)C[C@@H]1Cc1ccccc1			Ki	0.000067 µM
COC(=O)CCCC(=O)O[C@H]1CC[C@@]2(C)C(CC[C@]3(C)C2CC=C2C4CC(C)(C)CC[C@]4(C(=O)OC)CC[C@]23C)C1(C)C			IC50	>50 µM
CCOC(=O)[C@H](CCCN=C(N)NS(=O)(=O)c1ccc(C)cc1)NC(=O)OCC1c2ccccc2-c2ccccc21		HPLC	IC50	12 µM
CC1(C)CC[C@]2(C(=O)O)CC[C@]3(C)C(=CCC4[C@@]5(C)CC/C(=N\OC(=O)CCCCC(=O)O)C(C)(C)C5CC[C@]43C)C2C1		HPLC	IC50	5.5 µM
CC(C)[C@@H](NC(=O)N(C)Cc1cncs1)C(=O)N[C@@H](Cc1ccccc1)[C@H](O)CN1CCN(Cc2ccccc2)C[C@H]1C(=O)NC(C)(C)C		substrate cleavage	IC50	0.12 µM
CC1(C)CC2C3=CCC4[C@@]5(C)CC[C@H](O)C(C)(C)C5CC[C@@]4(C)[C@]3(C)CC[C@@]2(C)[C@H](O)C1		HPLC	IC50	18.8 µM
Cc1ccc(S(=O)(=O)NC(N)=NCCC[C@@H](CO)NC(=O)OCC2c3ccccc3-c3ccccc32)cc1		HPLC	IC50	9 µM
C=C(C)[C@@H]1CC[C@]2(C(=O)O)CC[C@]3(C)[C@H](CC[C@@H]4[C@@]5(C)CC[C@H](OC(=O)CCCC(=O)O)C(C)(C)[C@@H]5CC[C@]43C)[C@@H]12			IC50	4 µM
Cc1ccc(S(=O)(=O)NC(N)=NCCC[C@@H](NC(=O)OCC2c3ccccc3-c3ccccc32)C(=O)O)cc1		HPLC	IC50	>100 µM
COc1c(O)cc([C@H]2Oc3cc(O)cc(O[C@@H]4O[C@H](CO)[C@@H](O)[C@H](O)[C@H]4O)c3C[C@H]2O)cc1O	IIIB	HPLC	IC50	<100 µg/mL
CC(C)[C@H](NC(=O)OCc1ccccc1)C(=O)N[C@@H](Cc1ccccc1)C(O)[C@H](Cc1ccccc1)NC(=O)[C@@H](NC(=O)OCc1ccccc1)C(C)C			Ki	0.01 µM
COC(=O)[C@]12CCC(C)(C)C[C@H]1C1=CC[C@@H]3[C@@]4(C)CC/C(=N\O)C(C)(C)[C@@H]4CC[C@@]3(C)[C@]1(C)CC2		HPLC	IC50	5.5 µM
OC[C@H]1O[C@@H](Oc2cc(O)cc(O)c2)[C@H](O)[C@@H](O)[C@@H]1O	IIIB	HPLC	IC50	<100 µg/mL
COC(=O)[C@]12CCC(C)(C)CC1C1=CCC3[C@@]4(C)CC[C@H](NC(=O)CCCCC(=O)N[C@H]5CC[C@@]6(C)C(CC[C@]7(C)C6CC=C6C8CC(C)(C)CC[C@]8(C(=O)OC)CC[C@]67C)C5(C)C)C(C)(C)C4CC[C@@]3(C)[C@]1(C)CC2		HPLC	IC50	>20 µM
CC[C@@H](C)[C@H](NC(=O)[C@@H]1CCCN1C(=O)[C@@H](O)[C@H](Cc1ccccc1)NC(=O)[C@H](CC(N)=O)NC(=O)CCc1ccccc1)C(=O)NCC1CCCCC1			IC50	<5 µM
Cc1ccc(S(=O)(=O)NC(N)=NCCC[C@H](NC(=O)OCc2ccccc2)C(=O)O)cc1		HPLC	IC50	>>500 µM
CC1(C)CC[C@]2(C(=O)O)CC[C@]3(C)C(=CCC4[C@@]5(C)CC[C@H](OC(=O)CC(=O)O)C(C)(C)C5CC[C@]43C)C2C1			IC50	8 µM
N[C@@H](CO)C(=O)N[C@@H](Cc1ccccc1)[C@H](O)C(=O)NCC1CCCCC1			IC50	>1000 µM
COC(=O)[C@]12CCC(C)(C)CC1C1=CCC3[C@@]4(C)CC[C@H](NC(=O)CCCCC(=O)O)C(C)(C)C4CC[C@@]3(C)[C@]1(C)CC2		HPLC	IC50	3 µM
CC(C)(C)NC(=O)[C@@H]1CSCN1C(=O)[C@@H](O)[C@H](Cc1ccccc1)NC(=O)[C@H](CC(N)=O)NC(=O)COc1cccc2ccccc12			IC50	<0.05 µM
COC(=O)[C@]12CCC(C)(C)CC1C1=CCC3[C@@]4(C)CC[C@@H](N)C(C)(C)C4CC[C@@]3(C)[C@]1(C)CC2		HPLC	IC50	>20 µM
Cc1ccc(S(=O)(=O)NC(N)=NCCC[C@H](NC(=O)C(c2ccccc2)c2ccccc2)C(=O)O)cc1		HPLC	IC50	45 µM
CC(C)[C@@H](NC(=O)N(C)Cc1cncs1)C(=O)N[C@@H](Cc1ccccc1)[C@H](O)CN1CCN(Cc2cncs2)C[C@H]1C(=O)NC(C)(C)C		substrate cleavage	IC50	0.097 µM
CC(C)(C)NC(=O)[C@@H]1CCCN1C(=O)[C@H](O)[C@H](Cc1ccccc1)NC(=O)[C@H](CC(N)=O)NC(=O)OCc1ccccc1			IC50	>5 µM
Oc1cc(O)c2c(c1)O[C@H](c1cc(O)c(O)c(O)c1)[C@H](O)C2	IIIB	HPLC	IC50	>100 µg/mL
C=C(C)C1CC[C@]2(C(=O)O)CC[C@]3(C)[C@H](CC[C@@H]4[C@@]5(C)CC[C@H](OC(=O)CCC(=O)O)C(C)(C)[C@@H]5CC[C@]43C)[C@@H]12			IC50	6 µM
Cc1ccc(S(=O)(=O)NC(N)=NCCC[C@H](NC(=O)OCC2c3ccccc3-c3ccccc32)C(N)=O)cc1		HPLC	IC50	4 µM
C=C(C)[C@@H]1CC[C@]2(C(=O)O)CC[C@]3(C)[C@H](CC[C@@H]4[C@@]5(C)CC[C@H](OC(=O)CCC(=O)OC)C(C)(C)C5CC[C@]43C)[C@@H]12			IC50	40 µM
CC[C@@H](C)[C@H](NC(=O)[C@@H]1CCCN1C(=O)[C@@H](O)[C@H](Cc1ccccc1)NC(=O)[C@H](CC(N)=O)NC(=O)c1ccccn1)C(=O)N[C@H](C(N)=O)C(C)C			IC50	<5 µM
CC1(C)CC[C@]2(C(=O)O)CC[C@]3(C)C(=CC[C@@H]4[C@@]5(C)CC[C@H](O)C(C)(C)[C@@H]5CC[C@]43C)[C@@H]2C1			IC50	8 µM
CC1(C)CC[C@]2(C(=O)O)CC[C@]3(C)C(=CCC4[C@@]5(C)CC[C@@H](NC(=O)CCCCC(=O)O)C(C)(C)C5CC[C@]43C)C2C1		HPLC	IC50	2.1 µM

Again, the opening 3 rows:

compound	strain or isolate	method	endpoint	value
COc1c(O)cc([C@H]2Oc3cc(O)cc(O)c3C[C@@H]2O)cc1O[C@@H]1O[C@H](CO)[C@@H](O)[C@H](O)[C@H]1O	IIIB	HPLC	IC50	<100 µg/mL
COC(=O)[C@]12CC[C@@H](C)[C@H](C)[C@H]1C1=CC[C@@H]3[C@@]4(C)CC[C@H](O)C(C)(C)[C@@H]4CC[C@@]3(C)[C@]1(C)CC2			IC50	14 µM
COC(=O)[C@@H](NC(=O)[C@H](CC(C)C)NC(=O)[C@@H](NC(=O)CCCOc1cccc(OCCCC(=O)N[C@H](C(=O)N[C@@H](CC(C)C)C(=O)N[C@H](C(=O)OC)C(C)C)[C@@H](C)O)n1)[C@@H](C)O)C(C)C		fluorescence	IC50	>7 µM

Rows are shuffled and stem from different studies. An empty or dashed field is not shown.